From ChEMBL document CHEMBL3988442, “University of Dundee, Small-Polar-MMV Screening Library” (2021).

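Growth of Mycobacterium tuberculosis over 4 days (cholesterol / DPPC medium with tyloxapol); the read-out is not stated. Compounds at 50 µM. Direction is inferred from retests: higher values go with more growth inhibition. About 69,000 compounds were tested under these conditions; 0.54% (about 370) showed 50% or more at least once.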

Results are given as percent effect. How 0% and 100% were set is not recorded. Most values in the screen are low, and negative values occur. Many other results are left out here, so strong results are more common than in the screen. Two or more numbers in one place are separate tests of the same structure; such repeats can differ widely.

For Cc1ccccc1-n1c(C)cc(=O)[nH]c1=O the result was -6.793%. Result for CCc1nc(CN2CCCN(Cc3noc(C4CC4)n3)CC2)cs1 was 112.4% and -9.204%. CC(C)[C@@H]1CN(CC(=O)NCc2ccco2)C[C@H]1NS(=O)(=O)N(C)C gave 3.42%. With CN(Cc1ccco1)C(=O)CN1CCN(C)c2ccccc2C1 the screen gave -8.417%.

Result for CNCc1cc(F)ccc1Oc1ccc(Cl)cc1 was -5.799%. With CCNc1cc2c(nn1)CCN(C(=O)c1cc3ccccc3[nH]c1=O)C2 the screen gave -5.39%. For CC(O)CN1CCN(C(=O)c2ccc(Br)o2)CC1 (centres unmarked) the result was -23.49%. With Cc1cnn(C2CCCN(C(=O)c3ccc(N(C)C)nn3)C2)c1 (centres unmarked) the screen gave -17.76%.

Result for CNCCCNc1nc(C2CCCC2)nc2c1cnn2C was -2.748% and -4.28%. Result for COc1cccc(OC)c1OCCn1c(C)c(C)oc1=O was -3.936%. Result for CCc1nnc(CN(C)Cc2nc(-c3ccccc3Cl)oc2C)o1 was -5.626%. COCCNc1nnc(-c2ccc(C)nc2)s1 gave -8.728%.

With Brc1cnc(NCc2ccccc2N2CCOCC2)nc1 the screen gave 26.52%. With CC(Nc1cccc(COCc2ccco2)c1)C(=O)NC(N)=O (centres unmarked) the screen gave 11.79%. CCCc1nn(Cc2csc(C(C)C)n2)c(=O)o1 read 53.39%. Result for COC(=O)C1CCN(C(=O)c2nnc3ccc(Cl)cc3n2)CC1 was 19.2%.

For O=C(CSCC1CC1)N1CCCN(Cc2ccc(F)cc2)CC1 the result was 20.28%. For Cc1noc(NC(=O)c2ccccc2)n1 the result was -9.606%. O=C(NCCSC1CCCC1)c1cc(Cl)ccn1 read 7.7%. CC(NC(=O)c1cc(-c2cccc(Cl)c2)no1)C(=O)N1CCCC1 (centres unmarked) gave -0.9659%.

O=C(Cn1cc(I)cn1)N1CCCC1 gave 10.03%. Cc1cc(N2CCC(CO)(CC3CCCCO3)CC2)nc2ccccc12 (centres unmarked) read 11.87%. For COc1cc(NCc2c(C)noc2C)c(OC)cc1Cl the result was -18.75%. COCCC1(CNC(=O)NCC2CCC2)CCC1 gave 23.64%.

With CN(C)S(=O)(=O)c1ccc(CNC(=O)C2CC2)cc1 the screen gave -2.929%. CCCc1cc(C(=O)NC(C)c2ccccc2)n(C)n1 (centres unmarked) read 15.55% and 3.339%. CC(C)OCCS(=O)(=O)c1nccn1-c1cccc(F)c1 gave -9.749%. O=C(NC1CCCN(CCCc2ccccc2)C1)c1ccc(Cl)s1 (centres unmarked) gave 73.35%.

With O=C(c1ccc(NCc2cccc(F)c2)cc1)N1CCC(CO)CC1 the screen gave -5.397%. For COC1CCN(C(=O)Cn2ccc3ccccc32)CC1 the result was -19.81%. CCCc1nn(Cc2csc(CC)n2)c(=O)o1 gave 39.87%. For COC(=O)CSc1nnc(CCNC(=O)OC(C)(C)C)o1 the result was -7.349%.

With Cc1ccc(S(=O)(=O)CCC(=O)NCc2nnc3n2CCC3)cc1 the screen gave -5.799%. With Cc1ccc(CN2CCN(C(=O)c3ccc(Br)o3)CC2)cc1 the screen gave 21.11%. For O=C1Nc2ccccc2CN(CC2CCCC2)C12CCNC2 (centres unmarked) the result was 57.76%. With Fc1cccc(Nc2nc(N3CCCC3)nc3c2CNCC3)c1 the screen gave 69.5%.

For [H][C@@]12CCCO[C@]1([H])[C@H](NC(=O)C1CCC1)CN(Cc1ccoc1)C2 the result was -6.984%. For Cc1cc(C2CCCN(CC(=O)Nc3nc4c(s3)CCC4)C2)n[nH]1 (centres unmarked) the result was 51.91%. Result for CC(NCc1ccc(OCC(N)=O)cc1)c1ccc(Cl)cc1.Cl (centres unmarked) was 5.919%.

Once more, the final 4:

| structure | Percent Effect |
|---|---|
| `Fc1cccc(Nc2nc(N3CCCC3)nc3c2CNCC3)c1` | 69.5% |
| `[H][C@@]12CCCO[C@]1([H])[C@H](NC(=O)C1CCC1)CN(Cc1ccoc1)C2` | -6.984% |
| `Cc1cc(C2CCCN(CC(=O)Nc3nc4c(s3)CCC4)C2)n[nH]1` (centres unmarked) | 51.91% |
| `CC(NCc1ccc(OCC(N)=O)cc1)c1ccc(Cl)cc1.Cl` (centres unmarked) | 5.919% |